Test results from ChEMBL document CHEMBL5625167, “In vitro bioevaluation and docking study of dihydrosphingosine and ethambutol analogues against sensitive and multi-drug resistant Mycobacterium tuberculosis” (Eur J Med Chem, 2023).

What was measured:
[1] = test system: Mycobacterium tuberculosis; assay: Potency index, ratio of ethambutol MIC to test compound MIC for antimycobacterial activity against isoniazid, rifampicin, ethambutol, streptomycin and levofloxacin resistant Mycobacterium tuberculosis clinical isolate 1576 incubated for 7 days by resazurin dye based colorimetric method analysis; conditions: time 7 day
[2] = Selectivity index, ratio of CC50 for African green monkey Vero cells to MIC for isoniazid, rifampicin, ethambutol and pyrazinamide sensitive Mycobacterium tuberculosis H37Rv ATCC 25618
[3] = Selectivity index, ratio of CC50 for mouse J774.A1 cells to MIC for isoniazid, rifampicin, ethambutol and pyrazinamide sensitive Mycobacterium tuberculosis H37Rv ATCC 25618
[4] = Selectivity index, ratio of CC50 for human HepG2 cells to MIC for isoniazid, rifampicin, ethambutol and pyrazinamide sensitive Mycobacterium tuberculosis H37Rv ATCC 25618

CCCCCCCCCCCCCCCC(CO)NCCCCCCCCCC (stereo not drawn)
Ratio [1]: 45
Selectivity Index [2]: 1.62
Selectivity Index [3]: 0.86

CCCCCCCCCCCCCCCC(COCc1ccccc1)NCC (stereo not drawn)
Ratio [1]: 180
Selectivity Index [2]: 1.63
Selectivity Index [3]: 1.35
Selectivity Index [4]: 14.8

CCCCCCCCCCCCCCCCCC(COCc1ccccc1)NCCCCCC (stereo not drawn)
Ratio [1]: 45
Selectivity Index [2]: 1.88
Selectivity Index [3]: 1.85

CC[C@@H](CO)NCCN[C@@H](CC)CO [ETHAMBUTOL]
Selectivity Index [2]: 178
Selectivity Index [3]: > 401
Selectivity Index [4]: > 401

CCCCCCCCCCCCCCCC(CO)NCCCC (stereo not drawn)
Ratio [1]: 45
Selectivity Index [2]: 1.15
Selectivity Index [3]: 0.37

CCCCCCCCCCCCCCCC(CNCC(=O)OCC)NC(=O)OC(C)(C)C (stereo not drawn)
Ratio [1]: 90
Selectivity Index [2]: 1.22
Selectivity Index [3]: 0.87

CCCCCCCCCCCCCCCCCC(CN)NC(=O)OC(C)(C)C (stereo not drawn)
Ratio [1]: 180
Selectivity Index [2]: 1.11
Selectivity Index [3]: 1.91
Selectivity Index [4]: 7.19

CCCCCCCCCCCC(CO)NCC (stereo not drawn)
Ratio [1]: 45
Selectivity Index [2]: < 0.58
Selectivity Index [3]: < 0.16

CCCCCCCCCCCCCCCC(CO)N(CC)CC (stereo not drawn)
Selectivity Index [2]: 6.27
Selectivity Index [3]: 5.83

CCCCc1ccc(CCCCCCCCCC(CO)NC(=O)OC(C)(C)C)cc1 (stereo not drawn)
Ratio [1]: 180
Selectivity Index [2]: 0.97
Selectivity Index [3]: 0.49

CCCCCCCCCCCC(CO)NCCCC (stereo not drawn)
Ratio [1]: 90
Selectivity Index [2]: 0.81
Selectivity Index [3]: 0.67

CCCCc1ccc(CCCCCCCC(N)CO)cc1 (stereo not drawn)
Ratio [1]: 1440
Selectivity Index [2]: 5.31
Selectivity Index [3]: 2.65
Selectivity Index [4]: 6.35

CCCCc1ccc(CCCCCCCCCC(N)CO)cc1 (stereo not drawn)
Ratio [1]: 1440
Selectivity Index [2]: 3.17
Selectivity Index [3]: 1.47
Selectivity Index [4]: 5.71

CCCCCCCCCCCCCCCCCCCC(CN)NC(=O)OC(C)(C)C (stereo not drawn)
Ratio [1]: 45
Selectivity Index [2]: 1.61
Selectivity Index [3]: 1.12

CCCCCCCCCCCCCCCCCCCC(N)COCc1ccccc1 (stereo not drawn)
Ratio [1]: 90
Selectivity Index [2]: 3.93
Selectivity Index [3]: 0.72

CCCCCCCCCCCCCCCCCC(CO)NCCCC (stereo not drawn)
Ratio [1]: 90
Selectivity Index [2]: 4.61
Selectivity Index [3]: 0.97

CCCCCCCCCCCCCCCC(N)COCc1ccccc1 (stereo not drawn)
Ratio [1]: 640
Selectivity Index [2]: 9.37
Selectivity Index [3]: 1.32
Selectivity Index [4]: 22

CCCCCCCCCCCCCCCC(N)CNCC (stereo not drawn)
Ratio [1]: 180
Selectivity Index [2]: 1.25
Selectivity Index [3]: 0.8

CCCCc1ccc(CCCCCC(N)CO)cc1 (stereo not drawn)
Ratio [1]: 45
Selectivity Index [2]: 0.43
Selectivity Index [3]: 0.17

CCCCc1ccc(CCCCCC(CO)NC(=O)OC(C)(C)C)cc1 (stereo not drawn)
Ratio [1]: 180
Selectivity Index [2]: 0.8
Selectivity Index [3]: 0.22

CCCCCCCCCCCC(N)CO (stereo not drawn)
Ratio [1]: 90
Selectivity Index [2]: 0.64
Selectivity Index [3]: 0.04

CCCCCCCCCCCCCCCC(CO)N(CCCC)CCCC (stereo not drawn)
Ratio [1]: 360
Selectivity Index [2]: 5.9
Selectivity Index [3]: 2.8
Selectivity Index [4]: 10.3

CCCCCCCCCCCC(CO)N(CC)CC (stereo not drawn)
Ratio [1]: 90
Selectivity Index [2]: 0.57
Selectivity Index [3]: 0.28

CCCCCCCCCCCCCCCC(CNCCCCCC)NC(=O)OC(C)(C)C (stereo not drawn)
Ratio [1]: 360
Selectivity Index [2]: 2.86
Selectivity Index [3]: 2.59
Selectivity Index [4]: 10.8

CCCCCCCCCCCCCCCCCCCC(COCc1ccccc1)NCC (stereo not drawn)
Ratio [1]: 180
Selectivity Index [2]: 4.24
Selectivity Index [3]: 3.27
Selectivity Index [4]: 5.94

CCCCCCCCCCCCCCCC(CN)NC(=O)OC(C)(C)C (stereo not drawn)
Ratio [1]: 164
Selectivity Index [2]: 1.24
Selectivity Index [3]: 0.29

CCCCCCCCCCCCCCCC(N)CO (stereo not drawn)
Ratio [1]: 950
Selectivity Index [2]: 82.2
Selectivity Index [3]: 6.71
Selectivity Index [4]: 85.1

CCCCc1ccc(CCCCCCCC(CO)NC(=O)OC(C)(C)C)cc1 (stereo not drawn)
Ratio [1]: 180
Selectivity Index [2]: 0.88
Selectivity Index [3]: 0.4

CCCCCCCCCCCCCCCC(N)COCc1cc(OC)c(OC)c(OC)c1 (stereo not drawn)
Ratio [1]: 360
Selectivity Index [2]: 2.21
Selectivity Index [3]: 14.9
Selectivity Index [4]: 18.6

CCCCCCCCCCCC(CNCC)NC(=O)OC(C)(C)C (stereo not drawn)
Ratio [1]: 45
Selectivity Index [2]: 0.51
Selectivity Index [3]: 0.33

CCCCCCCCCCCCCCCCCC(N)COCc1ccccc1 (stereo not drawn)
Ratio [1]: 45
Selectivity Index [2]: 2.15
Selectivity Index [3]: 1.46

CCCCCCCCCCCCCCCC(CO)NCCCCCC (stereo not drawn)
Ratio [1]: 45
Selectivity Index [2]: 1.77
Selectivity Index [3]: 0.37

CCCCCCCCCCCCCCCCCCCC(CNCC)NC(=O)OC(C)(C)C (stereo not drawn)
Ratio [1]: 720
Selectivity Index [2]: 8.43
Selectivity Index [3]: 1.18
Selectivity Index [4]: 39.4

CCCCCCCCCCCCCCCC(COCc1ccccc1)NCCCCCC (stereo not drawn)
Ratio [1]: 45
Selectivity Index [2]: 0.84
Selectivity Index [3]: 0.85

CCCCCCCCCCCCCCCCCC(CO)NCC (stereo not drawn)
Ratio [1]: 180
Selectivity Index [2]: 1.47
Selectivity Index [3]: 8.44
Selectivity Index [4]: 12

CCCCCCCCCCCCCCCC(CO)NCC (stereo not drawn)
Ratio [1]: 90
Selectivity Index [2]: 1.73
Selectivity Index [3]: 1.43

CCCCCCCCCCCCCCCC(CNCCCC)NC(=O)OC(C)(C)C (stereo not drawn)
Ratio [1]: 360
Selectivity Index [2]: 2.54
Selectivity Index [3]: 2.65
Selectivity Index [4]: 17

CCCCCCCCCCCCCCCCCCCC(CO)N(CC)CC (stereo not drawn)
Ratio [1]: < 46
Selectivity Index [2]: < 1.83
Selectivity Index [3]: < 1.59

CCCCCCCCCCCCCCCCCC(N)CO (stereo not drawn)
Ratio [1]: 360
Selectivity Index [2]: 6.65
Selectivity Index [3]: 1.21
Selectivity Index [4]: 24.9

CCCCCCCCCCCCCCCC(CNCC)NC(=O)OC(C)(C)C (stereo not drawn)
Ratio [1]: 180
Selectivity Index [2]: 1.11
Selectivity Index [3]: 1.24
Selectivity Index [4]: 6.69

CCCCCCCCCCCCCCCCCC(CO)N(CC)CC (stereo not drawn)
Ratio [1]: < 45
Selectivity Index [2]: < 1.34
Selectivity Index [3]: < 0.77

CCCCCCCCCCCCCCCC(CN=[N+]=[N-])NC(=O)OC(C)(C)C (stereo not drawn)
Ratio [1]: 180
Selectivity Index [2]: < 1
Selectivity Index [3]: < 1.63

CCCCCCCCCCCCCCCC(N)CN (stereo not drawn)
Ratio [1]: 7
Selectivity Index [2]: < 3
Selectivity Index [3]: < 3.39
